According to article PMC4624681 (2015):

T1: Ig V domain of human T-cell immunoglobulin and mucin domain protein 1 (hTIM-1) (human, UniProt Q96D42 22-127)
T1 chain: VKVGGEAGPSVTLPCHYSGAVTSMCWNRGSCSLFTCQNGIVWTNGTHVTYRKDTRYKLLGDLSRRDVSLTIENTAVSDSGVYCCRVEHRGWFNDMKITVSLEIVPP

B1: Zaire GP (1–308) with a His tag (domain or fragment)
chain: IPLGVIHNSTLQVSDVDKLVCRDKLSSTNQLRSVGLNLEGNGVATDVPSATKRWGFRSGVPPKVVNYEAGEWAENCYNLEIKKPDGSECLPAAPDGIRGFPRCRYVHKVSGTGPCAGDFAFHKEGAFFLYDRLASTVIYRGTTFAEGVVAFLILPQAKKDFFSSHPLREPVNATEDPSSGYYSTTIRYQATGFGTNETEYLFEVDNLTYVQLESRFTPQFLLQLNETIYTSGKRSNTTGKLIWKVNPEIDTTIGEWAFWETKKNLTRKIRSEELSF
B2: Zaire GP (1–320) with a His tag (domain or fragment)
chain: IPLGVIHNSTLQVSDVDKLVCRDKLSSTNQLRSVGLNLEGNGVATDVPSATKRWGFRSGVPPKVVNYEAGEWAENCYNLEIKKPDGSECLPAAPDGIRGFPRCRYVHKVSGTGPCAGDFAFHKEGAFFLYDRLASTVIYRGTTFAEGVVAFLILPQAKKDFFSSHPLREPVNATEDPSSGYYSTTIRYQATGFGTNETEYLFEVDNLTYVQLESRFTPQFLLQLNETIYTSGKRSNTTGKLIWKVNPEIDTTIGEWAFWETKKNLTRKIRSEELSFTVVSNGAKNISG

Molecular target: T1, Ig V domain of human T-cell …
Assay: SPR

Row | Binder | Kd [µM]
1 | B1 | 12
2 | B2 | 26.7
